## RC index of single-base changes in HIV-1 RT

Reference: Al-Mawsawi et al. 2014, doi:10.1186/s12977-014-0124-6.

Protein: RT of HIV-1 NL4-3, numbered from its first residue.
Effects on overlapping genes or RNA elements are not listed.

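Random point mutant libraries of HIV-1 NL4-3, one for each of seven fragments, were passaged in CEM T lymphocytes. The RC index is the frequency of a change after passage round 2 divided by its frequency in the plasmid library.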

Values are the RC index; higher means better tolerated. The authors read about 0.1 or less as lethal, 0.1-0.2 as attenuated and 0.2 or more as tolerated. A change reads original residue, position, new residue. Input reads are the counts in the plasmid library. An index over 1, which the authors read as above wild type, was rare (1.9% of all changes in the genome). Nucleotide positions follow pNL4-3. Clones carried about five changes per kilobase, which can drag down the index of neutral changes.

M41K (base T2671A, input reads 316) read 0.0202. For Q407K (base C3768A, input reads 126) the result was 0.0632. For I31V (base A2640G, input reads 93) the result was 0.0688. For D192G (base A3124G, input reads 207) the result was 0.0454. With G99R (base G2844A, input reads 374) the assay gave 0.0501. I380V (base A3687G, input reads 286) gave 0.0742. A114S (base G2889T, input reads 62) read 0.0504.

With K73E (base A2766G, input reads 203) the assay gave 0.0336. With I50F (base A2697T, input reads 348) the assay gave 0.0997. V381E (base T3691A, input reads 303) gave 0.0263. For K220R (base A3208G, input reads 200) the result was 0.0940. K287N (base A3410T, input reads 200) read 0.0635. For S251C (base A3300T, input reads 127) the result was 0.0111. N474Y (base A3969T, input reads 387) read 0.0295.

P25Q (base C2623A, input reads 362) gave 0.0942. I542V (base A4173G, input reads 283) gave 0.0405. For I132T (base T2944C, input reads 141) the result was 0.0664. With D113N (base G2886A, input reads 348) the assay gave 0.114. I329K (base T3535A, input reads 221) read 0.0701. L295Q (base T3433A, input reads 376) gave 0.0127. With V458L (base G3921C, input reads 49) the assay gave 0.0372.

F346L (base T3587A, input reads 349) read 0.0333. With A481P (base G3990C, input reads 45) the assay gave 0.0845. For I326L (base A3525T, input reads 277) the result was 0.0350. With I50M (base T2699G, input reads 62) the assay gave 0.155. K30N (base A2639T, input reads 254) gave 0.218. K11E (base A2580G, input reads 157) gave 0.0950. F171C (base T3061G, input reads 49) gave 0.0704.

For K388R (base A3712G, input reads 318) the result was 0.0334. E516V (base A4096T, input reads 304) gave 0.0431. I326V (base A3525G, input reads 254) gave 0.0534. With P1H (base C2551A, input reads 336) the assay gave 0.124. V189E (base T3115A, input reads 204) gave 0.0921. With M41L (base A2670C, input reads 176) the assay gave 0.0484. S519I (base G4105T, input reads 119) read 0.0689.

For P1R (base C2551G, input reads 53) the result was 0.0462. E169D (base G3056T, input reads 190) read 0.0726. A355S (base G3612T, input reads 74) read 0.183. With D192N (base G3123A, input reads 408) the assay gave 0.857. For H221Y (base C3210T, input reads 324) the result was 0.0754. For W535R (base T4152A, input reads 309) the result was 0.0477. With L205Q (base T3163A, input reads 508) the assay gave 0.0259.

W401C (base G3752T, input reads 126) gave 0.0632. For N54Y (base A2709T, input reads 534) the result was 0.0144. With E514Q (base G4089C, input reads 53) the assay gave 0.0928. T338S (base A3561T, input reads 292) gave 0.0531. With M230L (base A3237T, input reads 323) the assay gave 0.0349. With K238N (base A3263T, input reads 251) the assay gave 0.0113. L349M (base C3594A, input reads 155) read 0.162.

With K30R (base A2638G, input reads 187) the assay gave 0.0684. T165S (base A3042T, input reads 478) read 0.0397. I522M (base A4115G, input reads 166) gave 0.128. For I270V (base A3357G, input reads 430) the result was 0.0209. With E492V (base A4024T, input reads 129) the assay gave 0.0295. For Q507E (base C4068G, input reads 56) the result was 0.102. V548I (base G4191A, input reads 298) read 0.176.

F124I (base T2919A, input reads 496) read 0.0189. P9Q (base C2575A, input reads 467) read 0.167. V417L (base G3798C, input reads 51) gave 0.107. With V493A (base T4027C, input reads 94) the assay gave 0.162.